Anti-infective test results gathered from many reports (values: NIAID ChemDB through PubChem).

All rows: whole-cell or culture tests; organism: HIV-1; endpoint: EC50

a–b is a range or a potency band.

| structure | setting | changes | cells | strain or isolate | method | result |
|---|---|---|---|---|---|---|
| CC1(C)[C@@H](O[C@H]2O[C@H](C(=O)O)[C@@H](O)[C@H](O)[C@H]2O[C@@H]2O[C@H](C(=O)O)[C@@H](O)[C@H](O)[C@H]2O)CC[C@]2(C)[C@H]3C(=O)C=C4[C@@H]5C[C@@](C)(C(=O)O)CC[C@]5(C)CC[C@@]4(C)[C@]3(C)CC[C@@H]12 | - | - | MT-4 | IIIB | cytopathic effect | <150 µM |
| CCCCCC=C(c1cc(Cl)c(OC)c(C(=O)O)c1)c1cc(Cl)c(OC)c(C(=O)O)c1 | - | - | CEM | - | cytopathic effect / XTT | 2.46–100 µM |
| NCC(N)=O | - | - | H9 | SF2 | p24 | <100 µM |
| O=C(C(=O)N1CCN(C(=O)c2ccccc2)CC1)c1cc2ccccc2s1 | - | - | HeLa | - | luciferase / reporter gene | 1–5 µM |
| Cc1cc(=O)c2c(O)c3c(O)cc(O)c4c5c(O)cc(O)c6c(O)c7c(=O)cc(C)c8c1c2c(c34)c(c65)c78 | - | - | CEM | LAV-1 | cytopathic effect / p24 / ELISA | <1 µg/mL |
| O=C(C(=O)N1CCN(C(=O)c2ccccc2)CC1)c1csc2ccccc12 | - | - | HeLa | - | luciferase / reporter gene | 1–5 µM |
| N#Cc1ccc(-c2csc(N/N=C/c3ccco3)n2)cc1 | - | - | MT-4 | IIIB | MTT | >10.04 µM |
| Cc1cn([C@H]2C=C[C@@H](CO)O2)c(=O)[nH]c1=O | - | - | MM + M/M | BaL | p24 | 0.25 µM |
| O=C(COc1ccc2ccccc2c1)NCC(=O)NNC(=S)Nc1ccc(Cl)cc1 | - | - | MT-4 | IIIB | MTT | >11.2 µg/mL |
| CC(C)C1=C2[C@H]3CC[C@@H]4[C@@]5(C)CC[C@H](OC(=O)[C@H]6C[C@@H](C(=O)O)C6(C)C)C(C)(C)[C@@H]5CC[C@@]4(C)[C@]3(C)CC[C@@]2([C@@H](O)CNCC(F)NC(=O)c2ccc(Cl)cc2)CC1=O | - | - | MT-2 | 92HT599 | p24 / ELISA | <1 µM |
| CN(C)C(=O)C(=O)NC12CCC(CC1)Cn1c2nc(C(=O)NCc2ccncc2)c(O)c1=O | pseudotyped | (delta)nef | MT-2 | NL4-3 | luciferase | <0.01 µM |
| N#Cc1ccc(-c2csc(N/N=C/c3ccccn3)n2)cc1 | - | - | MT-4 | IIIB | MTT | >1.71 µM |
| NCC(=O)N1CCC[C@H]1C(=O)NCC(N)=O | - | - | PBMC | Clinical isolates | p24 | 14 µM |
| O=C(c1ccccc1)N1CCN(C(=O)c2c[nH]c3cccc(F)c23)CC1 | - | - | HeLa | - | luciferase / reporter gene | <1 µM |
| COc1ccc(-n2c(CNC(=O)COc3ccc4ccccc4c3)n[nH]c2=S)cc1 | - | - | MT-4 | IIIB | MTT | >46.2 µg/mL |
| N#Cc1ccc(Nc2nccc(C(Cl)c3cccc4ccccc34)n2)cc1 | - | K103N + Y181C | MT-4 | IIIB | cytopathic effect | 11.3 µM |
| C/C(=N\Nc1nc(-c2ccc(C#N)cc2)cs1)c1ccc(Cl)c(Cl)c1 | - | - | MT-4 | IIIB | MTT | >17.1 µM |
| O=C(O)CS(=O)c1ccc2c3c(cccc13)C(=O)c1ccccc1-2 | - | - | Jurkat cells | - | luciferase / β-galactosidase | 0.2 µM |
| Oc1ccccc1/C=N/Nc1nc(-c2ccc(Br)cc2)cs1 | - | - | MT-4 | IIIB | MTT | >48.7 µM |
| COc1ccc2c(Cc3c4ccccc4cc4ccccc34)cncc2c1O | - | - | Jurkat cells | - | luciferase / β-galactosidase | 0.1 µM |
| O=C(O)c1cn(-c2ccc(Cn3cncn3)cc2)c2cc(N3CCN(c4ccc(Cl)c(Cl)c4)CC3)c(F)cc2c1=O | - | - | PBL | - | syncytia | 0.16 µM |
| COc1cc(Cl)ccc1C(=O)NC(C)(C)C(=O)NC[C@H](O)[C@@]12CC[C@]3(C)[C@H](CC[C@@H]4[C@@]5(C)CC[C@H](OC(=O)[C@H]6C[C@@H](C(=O)O)C6(C)C)C(C)(C)[C@@H]5CC[C@]43C)C1=C(C(C)C)C(=O)C2 | - | - | MT-2 | 92HT599 | p24 / ELISA | <1 µM |
| O=C(COc1ccc2ccccc2c1)NCc1n[nH]c(=S)n1-c1ccc(Br)cc1 | - | - | MT-4 | IIIB | MTT | ≥10.2 µg/mL |
| CSC1=NC2(C[C@@H]2c2ccccc2)C(=O)N1C(C)=O | - | - | MT-4 | IIIB | MTT | 4.9 µg/mL |
| Cc1ccc(-n2c(CNC(=O)COc3ccc4ccccc4c3)n[nH]c2=S)cc1 | - | - | MT-4 | IIIB | MTT | >15.2 µg/mL |
| CCCCCC=C(c1cc(Cl)c(OC)c(C(=O)OC)c1)c1cc(Cl)c(OC)c(C(=O)OC)c1 | - | - | CEM | - | cytopathic effect / XTT | 10.1–20.8 µM |
| Cc1cc(CNC(=O)c2nc3n(c(=O)c2O)CC2CCC3(NC(=O)[C@H]3CCN3C(=O)O)CC2)ccc1F | pseudotyped | (delta)nef | MT-2 | NL4-3 | luciferase | <0.01 µM |
| C/C(=N\Nc1nc(-c2ccc([N+](=O)[O-])cc2)cs1)c1ccc2c(c1)OCO2 | - | - | MT-4 | IIIB | MTT | >97.2 µM |
| CC(C)C1=C2[C@H]3CC[C@@H]4[C@@]5(C)CC[C@H](OC(=O)[C@H]6C[C@@H](C(=O)O)C6(C)C)C(C)(C)[C@@H]5CC[C@@]4(C)[C@]3(C)CC[C@@]2([C@@H](O)CNC(=O)C2(N)CNC2)CC1=O | - | - | MT-2 | 92HT599 | p24 / ELISA | <1 µM |
| O=C(O)c1cn(-c2ccc(Cn3cncn3)cc2)c2c(Cl)c(N3CCN(c4ccccn4)CC3)c(F)cc2c1=O | - | - | PBL | - | syncytia | 0.2 µM |
| CCN=c1scc(-c2cc(OC)ccc2OC)n1/N=C(\C)c1ccco1 | - | - | MT-4 | IIIB | MTT | >60 µg/mL |
| CCCCCC=C(c1cc(Br)c(OC)c(C(=O)OC)c1)c1cc(Br)c(OC)c(C(=O)OC)c1 | - | - | CEM | - | cytopathic effect / XTT | 0.272–49.7 µM |
| C[C@@H]1CN(C(=O)c2ccccc2)CCN1C(=O)C(=O)c1ccc2[nH]cc(C#N)c2c1 | - | - | HeLa | - | luciferase / reporter gene | <1 µM |
| CC1=C[C@@H]([C@H]2O[C@@H]3Cc4c(ccc5c4C=C[C@H]4C(C)(C)O[C@@H]6CC(=O)O[C@@]64C5)[C@@H]3[C@@H]2C)OC1=O | - | - | MT-4 | IIIB | cytopathic effect | ~19.7 µg/mL |
| N#Cc1ccc(Nc2ccnc(C(=O)c3ccc(C#N)cc3)n2)cc1 | - | - | MT-4 | IIIB | luciferase | 43 µM |
| CC(C)C1=C2[C@H]3CC[C@@H]4[C@@]5(C)CC[C@H](OC(=O)[C@H]6C[C@@H](C(=O)O)C6(C)C)C(C)(C)[C@@H]5CC[C@@]4(C)[C@]3(C)CC[C@@]2(CCNCc2ccc(N3CCOCC3)cc2)CC1=O | - | - | MT-2 | 92HT599 | p24 / ELISA | <1 µM |
| COc1cccc2oc(C(=O)C(C#N)N3CCN(C(=O)c4ccccc4)CC3)cc12 | - | - | HeLa | - | luciferase / reporter gene | <1 µM |
| COc1c(C(=O)NCc2ccc(F)cc2)nc2n(c1=O)CC1CCC2(NC(=O)CCC(=O)O)CC1 | pseudotyped | (delta)nef | MT-2 | NL4-3 | luciferase | <0.01 µM |
| COc1ccc(NC(=S)NNC(=O)CNC(=O)COc2ccc3ccccc3c2)cc1 | - | - | MT-4 | IIIB | MTT | >13.2 µg/mL |
| C/C(=N\Nc1nc(-c2ccc(C#N)cc2)cs1)c1ccc2c(c1)OCO2 | - | - | MT-4 | IIIB | MTT | >68.28 µM |
| CC(C)(C)c1ccc(C(Cl)c2ccnc(Nc3ccc(C#N)cc3)n2)cc1 | - | K103N + Y181C | MT-4 | IIIB | cytopathic effect | 32.9 µM |
| CC(C)CN(C[C@@H](O)[C@H](Cc1ccccc1)NC(=O)O[C@H]1CO[C@H]2OCC[C@H]21)S(=O)(=O)c1ccc2c(c1)OCO2 | - | M46I V82F I84V | MT-4 | NL4-3 (RTV5) | p24 | 0.0025 µM |
| CC(C)C1=C2[C@H]3CC[C@@H]4[C@@]5(C)CC[C@H](OC(=O)[C@H]6C[C@@H](C(=O)O)C6(C)C)C(C)(C)[C@@H]5CC[C@@]4(C)[C@]3(C)CC[C@@]2([C@@H](O)CNC(=O)C(C)(C)N)CC1=O | - | - | MT-2 | 92HT599 | p24 / ELISA | <1 µM |
| Cc1ccc(/C=N/Nc2nc(-c3ccc(Br)cc3)cs2)cc1 | - | - | MT-4 | IIIB | MTT | >125 µM |
| Cc1cccc(N2CCN(c3cc4c(cc3F)c(=O)c(C(=O)O)cn4-c3ccc(Cn4cncn4)cc3)CC2C)c1 | - | - | PBL | - | syncytia | 0.08 µM |
| O=[N+]([O-])c1ccc(-c2csc(N/N=C/c3ccccn3)n2)cc1 | - | - | MT-4 | IIIB | MTT | >17.3 µM |
| O=C(COc1ccc2ccccc2c1)NCc1nnc(Nc2ccccc2)s1 | - | - | MT-4 | IIIB | MTT | >0.96 µg/mL |
| N#Cc1ccc(Nc2nccc(C(Br)c3ccccc3)n2)cc1 | - | K103N + Y181C | MT-4 | IIIB | cytopathic effect | 69 µM |
| Nc1ncnc2c1ncn2[C@@H]1O[C@H](CO)C=C1F | - | - | MT-2 | - | - | 2.2 µM |
| CCCCCCCCCC=C(c1cc(Cl)c(OC)c(C(=O)O)c1)c1cc(Cl)c(OC)c(C(=O)O)c1 | - | - | CEM | - | cytopathic effect / XTT | 42.7–100 µM |

A second listing of 5 rows from above:

structure	setting	changes	cells	strain or isolate	method	result
O=C(c1ccccc1)N1CCN(C(=O)c2c[nH]c3cccc(F)c23)CC1	-	-	HeLa	-	luciferase / reporter gene	<1 µM
O=C(COc1ccc2ccccc2c1)NCc1nnc(Nc2ccccc2)s1	-	-	MT-4	IIIB	MTT	>0.96 µg/mL
CC1(C)[C@@H](O[C@H]2O[C@H](C(=O)O)[C@@H](O)[C@H](O)[C@H]2O[C@@H]2O[C@H](C(=O)O)[C@@H](O)[C@H](O)[C@H]2O)CC[C@]2(C)[C@H]3C(=O)C=C4[C@@H]5C[C@@](C)(C(=O)O)CC[C@]5(C)CC[C@@]4(C)[C@]3(C)CC[C@@H]12	-	-	MT-4	IIIB	cytopathic effect	<150 µM
CC(C)C1=C2[C@H]3CC[C@@H]4[C@@]5(C)CC[C@H](OC(=O)[C@H]6C[C@@H](C(=O)O)C6(C)C)C(C)(C)[C@@H]5CC[C@@]4(C)[C@]3(C)CC[C@@]2([C@@H](O)CNC(=O)C(C)(C)N)CC1=O	-	-	MT-2	92HT599	p24 / ELISA	<1 µM
N#Cc1ccc(-c2csc(N/N=C/c3ccccn3)n2)cc1	-	-	MT-4	IIIB	MTT	>1.71 µM

ECn: concentration that inhibits the pathogen or its effect by n%. Blank or dashed fields: not listed here. Rows are shuffled and stem from different studies.